Pooled drug test results. Numbers come from NIAID ChemDB, via PubChem.

Common to all: growth or infection tests; agent: Candida albicans; endpoint: MIC50

Conditions beyond the fields shown may differ between rows. Blank or dashed fields: not listed here. MIC50, MIC90 and the like: level of inhibition, or share of isolates inhibited.

| smiles | method | strain or isolate | result |
|---|---|---|---|
| CC(=O)OC/C=C(\C)CCC=C(C)C | broth dilution | ATCC 90028 | 4000 µg/mL |
| C/C(=N\NC(=O)c1ccccc1)c1ccc(-n2ccnc2)cc1 | broth dilution | ATCC 18804 | >821.4 µM |
| CC12CCC(CC1)C(C)(C)O2 | broth dilution | ATCC 90028 | >8000 µg/mL |
| Nc1nc(=O)n([C@H]2CS[C@@H](CO)O2)cc1F |  | 85 strains (fluconazole-resistant) | 0.25 µg/mL |
| O=C/C=C/c1ccccc1 | broth dilution | ATCC 90028 | 62.5 µg/mL |
| C[C@H]1[C@H](O)[C@@H](C)/C=C/C=C/C=C/C=C/C=C/C=C/C=C/[C@H](O[C@@H]2O[C@H](C)[C@@H](O)[C@H](N)[C@@H]2O)C[C@@H]2O[C@](O)(C[C@@H](O)C[C@@H](O)CC[C@H](O)[C@@H](O)C[C@@H](O)CC(=O)O[C@H]1C)C[C@H](O)[C@H]2C(=O)O |  | 4054 strains (fluconazole-susceptible) | 0.5 µg/mL |
| O=Cc1ccco1 | broth dilution | ATCC 90028 | 500 µg/mL |
| C[C@H](Cc1ccc(O)c(O)c1)[C@@H](C)Cc1ccc(O)c(O)c1 | broth dilution | CCC 129-2000 | 125 µg/mL |
| CNC(=S)N/N=C(\C)c1ccc(-n2ccnc2)cc1 | broth dilution | ATCC 18804 | >915 µM |
| C[C@@H](c1ncncc1F)[C@](O)(Cn1cncn1)c1ccc(F)cc1F | broth dilution | 9 clinical isolates | ≤0.031 µg/mL |
| CN(C/C=C/C#CC(C)(C)C)Cc1cccc2ccccc12 |  | CI_1 | 4 µg/mL |
| O=C(N/N=C/c1ccc(-n2ccnc2)cc1)c1ccc(Cl)cc1 | broth dilution | ATCC 18804 | >769.8 µM |
| C=C1C2CCC(C2)C1(C)C | broth dilution | ATCC 90028 | 4000 µg/mL |
| COc1cc(C=O)cc(OC)c1OC | broth dilution | ATCC 90028 | 1000 µg/mL |
| COC(=O)/C=C1/NN=C(c2ccccn2)N(c2ccccn2)C1=O | agar diffusion | Clinical isolate | 16 µg/mL |
| CCC(C)n1ncn(-c2ccc(N3CCN(c4ccc(OC[C@H]5CO[C@](Cn6cncn6)(c6ccc(Cl)cc6Cl)O5)cc4)CC3)cc2)c1=O | broth dilution | 9 clinical isolates | 0.062 µg/mL |
| CC(C)=CCC/C(C)=C/C=O | broth dilution | ATCC 90028 | 500 µg/mL |
| Nc1nc(=O)n([C@H]2CS[C@@H](CO)O2)cc1F |  | 183 strains | 0.125 µg/mL |

Repeating the first 2 entries:

smiles	method	strain or isolate	result
CC(=O)OC/C=C(\C)CCC=C(C)C	broth dilution	ATCC 90028	4000 µg/mL
C/C(=N\NC(=O)c1ccccc1)c1ccc(-n2ccnc2)cc1	broth dilution	ATCC 18804	>821.4 µM